pKd: −log10 of the molar value.
Target: tagged full-length purified WT VP35 (for MST) (Zaire ebolavirus (EBOV)) (UniProt Q05127)
Assay: MST

Sequences of proteins named here, by UniProt entry; tags and fusion partners are left off. A change or cut given only in a name is not applied to a line headed by its entry.
UniProt Q05127: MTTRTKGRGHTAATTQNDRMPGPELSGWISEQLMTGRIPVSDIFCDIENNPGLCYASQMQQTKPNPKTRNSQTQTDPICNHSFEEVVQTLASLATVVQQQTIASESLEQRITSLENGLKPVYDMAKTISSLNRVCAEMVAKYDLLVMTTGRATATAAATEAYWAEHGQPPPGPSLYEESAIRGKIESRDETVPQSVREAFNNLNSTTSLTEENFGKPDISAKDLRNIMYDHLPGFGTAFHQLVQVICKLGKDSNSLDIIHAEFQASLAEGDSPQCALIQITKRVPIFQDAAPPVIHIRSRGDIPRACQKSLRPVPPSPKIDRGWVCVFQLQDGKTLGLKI

## unanchored K63-linked polyUb chains [2–12] (from UniProt P0CG48 1-76)
  pKd: 7.82

From paper PMC10942258 (PLOS Biology, 2024)
